Anti-infective test results gathered from many reports (values: NIAID ChemDB through PubChem).

Shared fields: whole-cell or culture tests; species: Staphylococcus aureus

Two numbers with a dash give a range or band. MIC50, MIC90 and the like: level of inhibition, or share of isolates inhibited. Lines come from different laboratories, so protocols vary.

structure,strain,read-out,value
CC(=O)NC[C@H]1CN(c2ccc(NC(=O)c3ccc(/C=N/O)o3)c(F)c2)C(=O)O1,ATCC 29213 (linezolid-resistant),MIC,>64 µg/mL
CC(=O)NC[C@H]1CN(c2ccc(OC3CCN(C(=O)COCc4ccccc4)CC3)c(F)c2)C(=O)O1,OC4172 methicillin-susceptible,MIC,4 µg/mL
Cc1c(N2CC(N)C(C3CC3)C2)c(F)cn2c(=O)c(C(=O)O)cc(C3CC3)c12,NCTC 10649M,MIC,0.01 µg/mL
CCCCCCCCCCCCOC[N+](C)(C)CCCCCCCC,ATCC33592,MBC,25.5 µM
C[C@H]1NC2CC1N(c1nc3c(cc1F)c(=O)c(C(=O)O)cn3C(C)(C)C)C2,A9537,MIC,0.03 µg/mL
CC(=O)NC[C@H]1CN(c2ccc(OC3CCN(C(=O)COCc4cccnc4)CC3)c(F)c2)C(=O)O1,OC2878 methicillin-resistant,MIC,16 µg/mL
CC(=O)NC[C@H]1CN(c2ccc(N3CCN(C(=O)CO)CC3)c(F)c2)C(=O)O1,UC9213,MIC,4 µg/mL
CN(C)c1cc(CNC2CCCCC2)c(O)c2c1C[C@H]1C[C@H]3[C@H](N(C)C)C(=O)C(C(N)=O)=C(O)[C@@]3(O)C(=O)C1=C2O,MRSA5 (methicillin-resistant),MIC,0.5 µg/mL
COC(=O)NCc1nnc(-c2ccc(N3C[C@H](CNC(C)=S)OC3=O)cc2F)s1,UC9213 (methicillin-susceptible),MIC,<0.5 µg/mL
O=C(O)NC[C@H]1CC(c2ccc(N3CCN(C(=O)CO)CC3)c(F)c2)=NO1,UC9213,MIC,4 µg/mL
COc1c(N2C[C@@H]3CCCN[C@@H]3C2)c(F)cc2c(=O)c(C(=O)O)cn(C3CC3)c12,296 isolates (methicillin-susceptible),MIC90,0.1 µg/mL
C=CC(=O)NC[C@H]1CN(c2ccc(C3CCS(=O)(=O)CC3)c(F)c2)C(=O)O1,UC9213,MIC,2 µg/mL
CC[C@H]1OC(=O)[C@H](C)C(=O)[C@H](C)[C@@H](O[C@@H]2O[C@H](C)C[C@H](N(C)C)[C@H]2O)[C@@]2(C)C[C@@H](C)C(=NC(C)=O)[C@H](C)C(OC/C(=N\OCC#Cc3cccc(N)n3)CO2)[C@]1(C)O,25 strains,MIC50,4 µg/mL
CCOC(=O)C(C)(C)Sc1ccc(N2C[C@H](CNC(C)=O)OC2=O)cc1F,ATCC 29213 (linezolid-resistant),MIC,>64 µg/mL
CC[C@H]1OC(=O)[C@@](C)(F)C(=O)[C@H](C)[C@@H](O[C@@H]2O[C@H](C)C[C@H](N(C)C)[C@H]2O)[C@@]2(C)C[C@@H](C)C(=NC(C)=O)[C@H](C)[C@@H](OC/C(=N\OCc3ccc(-c4cccc(N)n4)s3)CO2)[C@]1(C)O,33591 (erythromycin-resistant),MIC,4 µg/mL
N#Cc1ccc(N2CCN(c3ccc(N4C[C@H](CNc5cnccn5)OC4=O)cc3F)CC2)nn1,122 (novobiocin-resistant),MIC,2 µg/mL
COC(=O)CCn1c(C)nc([N+](=O)[O-])c1Sc1ccc(N2C[C@H](CNC(C)=O)OC2=O)cc1F,ATCC 29213 (linezolid-resistant),MIC,>64 µg/mL
N#Cc1ccc(N2CCN(c3ccc(N4C[C@H](COc5ccncn5)OC4=O)cc3F)CC2)nc1,078 (oxford),MIC,16 µg/mL
CN(C)c1cc(CNC2CCCC2)c(O)c2c1C[C@H]1C[C@H]3[C@H](N(C)C)C(=O)C(C(N)=O)=C(O)[C@@]3(O)C(=O)C1=C2O,MRSA5 (methicillin-resistant),MIC,0.5 µg/mL
C#CCOC[C@H]1/C=C(C)/C=C/C(=O)[C@H](C)CC(C=O)[C@H](O[C@@H]2O[C@H](C)[C@@H](O)[C@H](N(C)C)[C@H]2O)[C@@H](C)[C@H](O)CC(=O)O[C@@H]1CC,25923 (erythromycin-susceptible),MIC,0.5 µg/mL
CCCCCCCCCCCC[N+](C)(C)COC1CCCCC1,ATCC33592,MBC,13.8 µM
CC[C@H]1OC(=O)C[C@@H](O)[C@H](C)[C@@H](O[C@@H]2O[C@H](C)[C@@H](O)[C@H](N(C)C)[C@H]2O)C(C=O)C[C@@H](C)C(=O)/C=C/C(C)=C/[C@@H]1COCOCc1ccccc1,25923 (erythromycin-susceptible),MIC,0.25 µg/mL
CC(C)(C)n1cc(C(=O)O)c(=O)c2cc(F)c(N3C[C@H]4C[C@@H]3CN4)nc21,30 strains (methicillin-susceptible),MIC90,0.25 µg/mL
CC(C)(C)n1cc(C(=O)O)c(=O)c2cc(F)c(N3C[C@H]4C[C@@H]3CN4)nc21,30 strains (methicillin-resistant),MIC50,0.5 µg/mL
CC[C@H]1OC(=O)C[C@@H](O)[C@H](C)[C@@H](O[C@@H]2O[C@H](C)[C@@H](O)[C@H](N(C)C)[C@H]2O)C(C=O)C[C@@H](C)C(=O)/C=C/C(C)=C/[C@@H]1COC(=O)NCCc1ccccc1,25923 (erythromycin-susceptible),MIC,0.25 µg/mL
CC(=O)NC[C@H]1CN(c2ccc(-n3cnc(C=CC#N)c3)c(F)c2)C(=O)O1,Oxford,MIC,0.125 µg/mL
O=CN(O)CCCP(=O)(O)O,FDA209P JC-1,MIC,>800 µg/mL
CC(=O)NC[C@H]1CN(c2ccc(C3CCS(=O)(=O)CC3)c(F)c2)C(=O)O1,UC 12673,MIC,2 µg/mL
CNCc1nnc(-c2ccc(N3C[C@H](CNC(C)=S)OC3=O)cc2F)s1,UC9213 (methicillin-susceptible),MIC,<0.5 µg/mL
COCC(=O)Nc1ccc(N2C[C@H](CNC(C)=O)OC2=O)cc1F,ATCC 29213 (linezolid-resistant),MIC,>64 µg/mL
O=C(O)NC[C@H]1CC(c2ccc(-n3ccnc3)c(F)c2)=NO1,UC9218,MIC,2 µg/mL
CC(=S)NC[C@H]1CN(c2ccc(-c3nnc([C@@H]4CCCN4)s3)c(F)c2)C(=O)O1,UC9213 (methicillin-susceptible),MIC,2 µg/mL
CCCCCCCCCCCC[N+](C)(C)COC(CCC)CCC,ATCC 6538,MIC,1.59 µM
CC(=O)NC[C@H]1CN(c2ccc(SCCC#N)c(F)c2)C(=O)O1,ATCC 29213 (linezolid-resistant),MIC,>64 µg/mL
CC[C@H]1OC(=O)C[C@@H](O)[C@H](C)[C@@H](O[C@@H]2O[C@H](C)[C@@H](O)[C@H](N(C)C)[C@H]2O)C(C=O)C[C@@H](C)C(=O)/C=C/C(C)=C/[C@@H]1COC(=O)Nc1ccc(Br)cc1,25923 (erythromycin-susceptible),MIC,0.5 µg/mL
CC(=O)NC[C@H]1CN(c2ccc(NC(=O)c3ccc(Br)o3)c(F)c2)C(=O)O1,ATCC 29213 (linezolid-resistant),MIC,>64 µg/mL
CC[C@H]1OC(=O)[C@H](C)C(=O)[C@H](C)[C@@H](O[C@@H]2O[C@H](C)C[C@H](N(C)C)[C@H]2O)[C@@]2(C)C[C@@H](C)C(=NC(C)=O)[C@H](C)C(OC/C=C/CO2)[C@]1(C)O,33591 (erythromycin methicillin-resistant),MIC,>64 µg/mL
CC(=S)NC[C@H]1CN(c2ccc(-c3nnc(CNS(C)(=O)=O)s3)c(F)c2)C(=O)O1,UC9213 (methicillin-susceptible),MIC,1 µg/mL
N#Cc1ccc(N2CCN(c3ccc(N4C[C@H](COc5ccccn5)OC4=O)cc3F)CC2)nc1,004 (methicillin quinolone-resistant),MIC,1 µg/mL
Cc1c(N2C[C@@H](N)[C@@H](C3CC3)C2)c(F)cn2c(=O)c(C(=O)O)cc(C3CC3)c12,NCTC 10649M,MIC,0.02 µg/mL
CC(=O)NC[C@H]1CN(c2ccc(Sc3ncc([N+](=O)[O-])s3)c(F)c2)C(=O)O1,ATCC 29213 (linezolid-resistant),MIC,8 µg/mL
CC(=O)NC[C@H]1CN(c2ccc3c(c2)OCc2nccn2-3)C(=O)O1,25701,MIC,0.5 µg/mL
Cc1c(N2C[C@H](C3CC3)[C@@H](N)C2)c(F)cn2c(=O)c(C(=O)O)cc(C3CC3)c12,NCTC 10649M,MIC,0.02 µg/mL
CC(=O)NC[C@H]1CN(c2ccc(NC(=O)c3ccc([N+](=O)[O-])s3)c(F)c2)C(=O)O1,ATCC 29213 (linezolid-resistant),MIC,>64 µg/mL
Cc1ccc(-c2ccc(O)c3c2C[C@H]2C[C@H]4[C@H](N(C)C)C(=O)C(C(N)=O)=C(O)[C@@]4(O)C(=O)C2=C3O)cc1N,MRSA5 (methicillin-resistant),MIC,0.25 µg/mL
O=C(O)NC[C@H]1CC(c2ccc(N3CCOCC3)c(F)c2)=NO1,UC9213,MIC,4 µg/mL
CC(=O)NCC(=O)N1CCC(Oc2ccc(N3C[C@H](CNC(C)=O)OC3=O)cc2F)CC1,OC4172 methicillin-susceptible,MIC,16 µg/mL
CC(=S)NC[C@H]1CN(c2ccc(-c3nnc(C(C)(C)N)s3)c(F)c2)C(=O)O1,UC9213 (methicillin-susceptible),MIC,4 µg/mL
CC[C@H]1OC(=O)C[C@@H](O)[C@H](C)[C@@H](O[C@@H]2O[C@H](C)[C@@H](O)[C@H](N(C)C)[C@H]2O)C(C=O)C[C@@H](C)C(=O)/C=C/C(C)=C/[C@@H]1COC(=O)Nc1cc(F)cc(F)c1,25923 (erythromycin-susceptible),MIC,0.5 µg/mL
CCCCCCCC[N+](C)(C)COC(C)CCC,ATCC33592,MIC,17 µM
CC[C@H]1OC(=O)C[C@@H](O)[C@H](C)[C@@H](O[C@@H]2O[C@H](C)[C@@H](O)[C@H](N(C)C)[C@H]2O)C(C=O)C[C@@H](C)C(=O)/C=C/C(C)=C/[C@@H]1COC(=O)Nc1ccccc1,25923 (erythromycin-susceptible),MIC,0.25 µg/mL
COC(=O)NC(C)c1nnc(-c2ccc(N3C[C@H](CNC(C)=S)OC3=O)cc2F)s1,UC9213 (methicillin-susceptible),MIC,2 µg/mL
COc1ccc(-c2ccc(N3CC(CNC(C)=O)CC3=O)cc2)ccc1=O,UC9218,MIC,>64 µg/mL
CC(=O)NC[C@H]1CN(c2ccc(NC(=O)c3cnccn3)c(F)c2)C(=O)O1,ATCC 29213 (linezolid-resistant),MIC,>64 µg/mL
CC(=S)NC[C@H]1CN(c2ccc(-c3nnc(CNC=O)s3)c(F)c2)C(=O)O1,UC9213 (methicillin-susceptible),MIC,<0.5 µg/mL
CN(C)c1cc(CNCc2ccccc2)c(O)c2c1C[C@H]1C[C@H]3[C@H](N(C)C)C(=O)C(C(N)=O)=C(O)[C@@]3(O)C(=O)C1=C2O,MRSA5 (methicillin-resistant),MIC,0.5 µg/mL
CN(C)c1cc(NC(=O)CNC(C)(C)C)c(O)c2c1C[C@H]1C[C@H]3[C@H](N(C)C)C(=O)C(C(N)=O)=C(O)[C@@]3(O)C(=O)C1=C2O,Oxacillin-resistant,MIC,≤0.25 µg/mL
C[C@H]1COc2c(N3CCN(C)CC3)c(F)cc3c(=O)c(C(=O)O)cn1c23,Methicillin-resistant,MIC90,0.5–8 µg/mL

A second listing of 7 rows from above:

{"structure": "N#Cc1ccc(N2CCN(c3ccc(N4C[C@H](COc5ccncn5)OC4=O)cc3F)CC2)nc1", "strain": "078 (oxford)", "read-out": "MIC", "value": "16 µg/mL"}
{"structure": "O=CN(O)CCCP(=O)(O)O", "strain": "FDA209P JC-1", "read-out": "MIC", "value": ">800 µg/mL"}
{"structure": "COC(=O)NCc1nnc(-c2ccc(N3C[C@H](CNC(C)=S)OC3=O)cc2F)s1", "strain": "UC9213 (methicillin-susceptible)", "read-out": "MIC", "value": "<0.5 µg/mL"}
{"structure": "CC(=O)NC[C@H]1CN(c2ccc(-n3cnc(C=CC#N)c3)c(F)c2)C(=O)O1", "strain": "Oxford", "read-out": "MIC", "value": "0.125 µg/mL"}
{"structure": "COc1c(N2C[C@@H]3CCCN[C@@H]3C2)c(F)cc2c(=O)c(C(=O)O)cn(C3CC3)c12", "strain": "296 isolates (methicillin-susceptible)", "read-out": "MIC90", "value": "0.1 µg/mL"}
{"structure": "CC(=O)NC[C@H]1CN(c2ccc(NC(=O)c3ccc(/C=N/O)o3)c(F)c2)C(=O)O1", "strain": "ATCC 29213 (linezolid-resistant)", "read-out": "MIC", "value": ">64 µg/mL"}
{"structure": "CC[C@H]1OC(=O)[C@H](C)C(=O)[C@H](C)[C@@H](O[C@@H]2O[C@H](C)C[C@H](N(C)C)[C@H]2O)[C@@]2(C)C[C@@H](C)C(=NC(C)=O)[C@H](C)C(OC/C=C/CO2)[C@]1(C)O", "strain": "33591 (erythromycin methicillin-resistant)", "read-out": "MIC", "value": ">64 µg/mL"}